PubChem BioAssay AID1224833, University of Georgia – 2016
Shown is an unselected part of about 12,000 reagents. About 5,600 of all reagents (46%) were called active. 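Active calls cover z-scores past 1 in both directions, so they include lowered as well as raised rotavirus replication.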

Purpose: 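Human genes whose knock-down alters rotavirus replication in monkey cells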 (primary screen)
Cells: monkey MA104 kidney cells
Knock-down reagent: siRNA pool against human genes, 50 nM
Time to read-out: 48 h knock-down before infection; read 24 h after infection
Treatment: infection with rotavirus strain RV3 two days after transfection; infectious dose for this stage not given
Read-out: 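Rotavirus antigen per well by fluorescent immunoassay, normalised to non-targeting control wells on each plate and given as a standard z-score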
Scale: z-score vs non-targeting control: higher = more rotavirus replication than with non-targeting control
Active means: In these data the active calls have z-score vs non-targeting control at about -1 or lower, or at about 1 or higher
Calls: active = z-score beyond 1 either way; inactive = z-score within 1 of zero

gene symbol,z-score vs non-targeting control,outcome
SCFD1 (GeneID 23256),-0.713,inactive
LAD1 (GeneID 3898),0.413,inactive
CCT2 (GeneID 10576),-2.19,active
CCN6 (GeneID 8838),-0.796,inactive
SALL2 (GeneID 6297),2.16,active
GDAP1L1 (GeneID 78997),-0.514,inactive
H4C5 (GeneID 8367),-0.241,inactive
FAM153A (GeneID 285596),-1.31,active
OPA1 (GeneID 4976),0.84,inactive
KRT84 (GeneID 3890),0.712,inactive
ACSF3 (GeneID 197322),-2.81,active
MAPT (GeneID 4137),0.0765,inactive
CRYBB2 (GeneID 1415),0.155,inactive
OR11H4 (GeneID 390442),-0.143,inactive
ZNF641 (GeneID 121274),0.684,inactive
ABCF1 (GeneID 23),-1.42,active
N4BP2L1 (GeneID 90634),-1.24,active
DHRS12 (GeneID 79758),-1.17,active
CFHR5 (GeneID 81494),0.561,inactive
PRCD (GeneID 768206),-0.437,inactive
CCDC191 (GeneID 57577),3.74,active
FUT8 (GeneID 2530),-0.938,inactive
BCDIN3D (GeneID 144233),1.01,active
JHY (GeneID 79864),0.51,inactive
TAF6L (GeneID 10629),1.27,active
DNAJC8 (GeneID 22826),-2.78,active
LINGO1 (GeneID 84894),0.0185,inactive
PHC3 (GeneID 80012),1.29,active
AHSA2P (GeneID 130872),-1.8,active
TMEM70 (GeneID 54968),1.3,active
TRIM43 (GeneID 129868),-0.926,inactive
SELP (GeneID 6403),-1.36,active
PEDS1 (GeneID 387521),-1.54,active
SCAF11 (GeneID 9169),0.978,inactive
LENG8 (GeneID 114823),-1.33,active
SLC2A12 (GeneID 154091),-0.582,inactive
PIDD1 (GeneID 55367),1.94,active
LCN9 (GeneID 392399),1.58,active
FAM107A (GeneID 11170),-0.919,inactive
TMBIM6 (GeneID 7009),-0.775,inactive
ENTREP3 (GeneID 10712),1.14,active
AGR3 (GeneID 155465),-1.59,active
USH1C (GeneID 10083),2.03,active
COPS7A (GeneID 50813),-0.0789,inactive
TIRAP (GeneID 114609),-0.383,inactive
H2BC12 (GeneID 85236),-0.998,inactive
ANKRD22 (GeneID 118932),-2.24,active
SNX18 (GeneID 112574),0.931,inactive
HMX2 (GeneID 3167),-0.0417,inactive
SNRPB (GeneID 6628),0.504,inactive
DSE (GeneID 29940),0.508,inactive
CPLANE2 (GeneID 79363),-1.25,active
MADCAM1 (GeneID 8174),-0.323,inactive
S1PR2 (GeneID 9294),3.35,active
CCND1 (GeneID 595),1.35,active
TREML1 (GeneID 340205),-0.685,inactive
RAX2 (GeneID 84839),-1.85,active
TOB1 (GeneID 10140),-1.61,active
NMI (GeneID 9111),-1.34,active
TRIM16L (GeneID 147166),1.16,active
TIMP1 (GeneID 7076),-1.18,active
GP5 (GeneID 2814),-0.979,inactive
FAM47E (GeneID 100129583),-2.08,active
ZNF777 (GeneID 27153),0.457,inactive
RLN3 (GeneID 117579),0.804,inactive
COPG1 (GeneID 22820),0.699,inactive
PAGE1 (GeneID 8712),-0.292,inactive
GRM3 (GeneID 2913),-1.82,active
YTHDF1 (GeneID 54915),0.525,inactive
SGCZ (GeneID 137868),-0.554,inactive
RUSC1-AS1 (GeneID 284618),-1.31,active
GCSAM (GeneID 257144),0.787,inactive
GRAMD2A (GeneID 196996),-0.662,inactive
ZFP69B (GeneID 65243),1.26,active
SPDYA (GeneID 245711),0.936,inactive
TMEM106B (GeneID 54664),-1.59,active
DPRX (GeneID 503834),-1.97,active
ELAVL4 (GeneID 1996),-3.32,active
CA5B (GeneID 11238),-1.01,active
CLASP2 (GeneID 23122),0.342,inactive
EGLN3 (GeneID 112399),0.614,inactive
ARPC5L (GeneID 81873),-0.601,inactive
CARMIL2 (GeneID 146206),-0.831,inactive
CRIPAK (retired record) (GeneID 285464),-1.58,active
NKX3-1 (GeneID 4824),0.657,inactive
RBM19 (GeneID 9904),0.282,inactive
ADIG (GeneID 149685),2.17,active
PSMB10 (GeneID 5699),0.668,inactive
LEPR (GeneID 3953),1.05,active
FAM149A (GeneID 25854),-1.14,active
RPS21 (GeneID 6227),1,inactive
ELK4 (GeneID 2005),-2.23,active
UST (GeneID 10090),-1.11,active
MRPL13 (GeneID 28998),0.0473,inactive
MESP1 (GeneID 55897),-0.701,inactive
FRG1 (GeneID 2483),-0.272,inactive
SLC2A4 (GeneID 6517),-2.23,active
ADGRF2P (GeneID 222611),-0.681,inactive
NLRP1 (GeneID 22861),-1.81,active
DMP1 (GeneID 1758),-0.47,inactive
SULT2A1 (GeneID 6822),-1.25,active
TXNL4B (GeneID 54957),-1.48,active
DCHS1 (GeneID 8642),0.349,inactive
SNRPD2 (GeneID 6633),-0.998,inactive
GALNTL5 (GeneID 168391),-1.46,active
C1QTNF7 (GeneID 114905),-1.82,active
ZNF334 (GeneID 55713),-1,active
LARS2 (GeneID 23395),-0.756,inactive
APOLD1 (GeneID 81575),0.622,inactive
ATL3 (GeneID 25923),-1.31,active

14 entries from above in another layout.
gene symbol | z-score vs non-targeting control | outcome
PSMB10 (GeneID 5699) | 0.668 | inactive
LEPR (GeneID 3953) | 1.05 | active
FAM149A (GeneID 25854) | -1.14 | active
RPS21 (GeneID 6227) | 1 | inactive
ELK4 (GeneID 2005) | -2.23 | active
UST (GeneID 10090) | -1.11 | active
MRPL13 (GeneID 28998) | 0.0473 | inactive
MESP1 (GeneID 55897) | -0.701 | inactive
FRG1 (GeneID 2483) | -0.272 | inactive
SLC2A4 (GeneID 6517) | -2.23 | active
ADGRF2P (GeneID 222611) | -0.681 | inactive
NLRP1 (GeneID 22861) | -1.81 | active
DMP1 (GeneID 1758) | -0.47 | inactive
SULT2A1 (GeneID 6822) | -1.25 | active
